## Share of PSTVd loop 15 variants by leaf site

Region: loop 15 of PSTVd (intermediate strain), upper and lower strand joined, each 5' to 3', the first 7 letters being the upper strand, closing pairs included. Wild type: GGAAACCGCUACUAC. Varied positions (N): GGAAACCGNNNNNNC.

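Three N. benthamiana plants were inoculated with the whole mutant pool. Samples came from the inoculated region at 5 days, the leaf margin at 10 and upper systemic leaves at 12.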

Values are reads per thousand in the sample; higher means more abundant, 0 means not found.
Each site shows the three plants.
"Pool" is the share in the plasmid pool used as inoculum, on the same scale.
The inoculated region was read from the minus strand, the other sites from the plus strand.
IR is the inoculated region, LM the leaf margin, Sys the systemic leaves.
For reference, wild type rose from 33.9 per thousand in the pool to 202, 200, 159 (inoculated region), 724, 746, 710 (leaf margin) and 856, 883, 880 (systemic leaves).
With 43,870-66,106 reads a sample, very low values are single reads.
Sequences that differ at fixed positions probably stem from PCR or sequencing errors, and defective variants can be carried along by functional ones.

| sequence | pool | IR | LM | Sys |
|---|---|---|---|---|
| GGAAACCGGUUCACC | 0.176 | 0.147 / 0.0964 / 0.0952 | 0.0323 / 0 / 0.0200 | 0 / 0 / 0.0228 |
| GGAAACCGGUUCAGC | 0.272 | 0.164 / 0.0803 / 0.152 | 0.0162 / 0 / 0 | 0 / 0 / 0 |
| GGAAACCGGUUCAUC | 0.224 | 0.115 / 0.0964 / 0.0952 | 0 / 0.0223 / 0.0200 | 0 / 0 / 0 |
| GGAAACCGGUUCCAC | 0.240 | 0.147 / 0.0482 / 0.0952 | 0.0162 / 0.0223 / 0 | 0.0161 / 0 / 0 |
| GGAAACCGGUUCCCC | 0.112 | 0.0819 / 0.0803 / 0.0190 | 0 / 0 / 0 | 0 / 0 / 0 |
| GGAAACCGGUUCCGC | 0.272 | 0.0819 / 0.0803 / 0.0762 | 0 / 0 / 0.0200 | 0 / 0 / 0 |
| GGAAACCGGUUCCUC | 0.256 | 0.0819 / 0.0643 / 0.190 | 0.0162 / 0.0223 / 0 | 0.0161 / 0 / 0 |
| GGAAACCGGUUCGAC | 0.160 | 0.0819 / 0.112 / 0.0762 | 0 / 0 / 0.0200 | 0 / 0 / 0 |
| GGAAACCGGUUCGCC | 0.240 | 0.164 / 0.145 / 0.0571 | 0 / 0.0223 / 0.0200 | 0.0161 / 0 / 0 |
| GGAAACCGGUUCGGC | 0.256 | 0.0655 / 0.0803 / 0.114 | 0.0162 / 0 / 0.0200 | 0 / 0 / 0 |
| GGAAACCGGUUCGUC | 0.288 | 0.0655 / 0.112 / 0.0762 | 0 / 0 / 0 | 0 / 0.0151 / 0 |
| GGAAACCGGUUCUAC | 0.224 | 0.0655 / 0.0321 / 0.0381 | 0 / 0 / 0 | 0.0161 / 0 / 0 |
| GGAAACCGGUUCUCC | 0.256 | 0.0655 / 0.129 / 0.0952 | 0 / 0.0223 / 0.0200 | 0 / 0 / 0 |
| GGAAACCGGUUCUGC | 0.128 | 0.115 / 0.112 / 0.133 | 0 / 0.0223 / 0.0401 | 0 / 0 / 0 |
| GGAAACCGGUUCUUC | 0.256 | 0.147 / 0.129 / 0.0762 | 0.0162 / 0 / 0 | 0 / 0 / 0 |
| GGAAACCGGUUGAAC | 0.192 | 0.0819 / 0.112 / 0.133 | 0 / 0.0223 / 0 | 0.0322 / 0 / 0 |
| GGAAACCGGUUGACC | 0.144 | 0.115 / 0.129 / 0.133 | 0 / 0 / 0 | 0 / 0 / 0 |
| GGAAACCGGUUGAGC | 0.160 | 0.0819 / 0.129 / 0.0952 | 0 / 0 / 0.0401 | 0 / 0 / 0 |
| GGAAACCGGUUGAUC | 0.240 | 0.115 / 0.0482 / 0.133 | 0.0162 / 0 / 0.0200 | 0 / 0 / 0 |
| GGAAACCGGUUGCAC | 0.144 | 0.0819 / 0.0803 / 0.114 | 0.0323 / 0.0223 / 0 | 0 / 0 / 0 |
| GGAAACCGGUUGCCC | 0.256 | 0.0491 / 0.0964 / 0.171 | 0 / 0 / 0 | 0 / 0 / 0 |
| GGAAACCGGUUGCGC | 0.288 | 0.164 / 0.0482 / 0.0952 | 0 / 0 / 0.0401 | 0 / 0 / 0 |
| GGAAACCGGUUGCUC | 0.272 | 0.0819 / 0.0482 / 0.133 | 0.0162 / 0 / 0 | 0.0161 / 0 / 0 |
| GGAAACCGGUUGGAC | 0.208 | 0.115 / 0.0643 / 0.0571 | 0 / 0 / 0.0401 | 0 / 0 / 0 |
| GGAAACCGGUUGGCC | 0.272 | 0.164 / 0.0482 / 0.0762 | 0 / 0.0223 / 0 | 0 / 0 / 0 |
| GGAAACCGGUUGGGC | 0.192 | 0.115 / 0.0964 / 0.133 | 0.0162 / 0 / 0 | 0 / 0 / 0 |
| GGAAACCGGUUGGUC | 0.208 | 0.0819 / 0.0482 / 0.114 | 0.0162 / 0 / 0 | 0 / 0 / 0 |
| GGAAACCGGUUGUAC | 0.288 | 0.377 / 0.241 / 0.343 | 0.178 / 0.0891 / 0.301 | 0.0644 / 0.0454 / 0.160 |
| GGAAACCGGUUGUCC | 0.144 | 0.0655 / 0.0964 / 0.0952 | 0 / 0 / 0 | 0.0161 / 0 / 0 |
| GGAAACCGGUUGUGC | 0.176 | 0.180 / 0.112 / 0.133 | 0 / 0 / 0 | 0 / 0 / 0 |
| GGAAACCGGUUGUUC | 0.240 | 0.328 / 0.289 / 0.305 | 0.162 / 0.0891 / 0.200 | 0.0322 / 0 / 0 |
| GGAAACCGGUUUAAC | 0.240 | 0.0983 / 0.0964 / 0.228 | 0 / 0 / 0.0401 | 0 / 0 / 0 |
| GGAAACCGGUUUACC | 0.176 | 0.0491 / 0.145 / 0.0952 | 0.0162 / 0 / 0.0401 | 0 / 0 / 0 |
| GGAAACCGGUUUAGC | 0.352 | 0.131 / 0.0803 / 0.0952 | 0 / 0.0223 / 0 | 0 / 0 / 0 |
| GGAAACCGGUUUAUC | 0.160 | 0.0983 / 0.0964 / 0 | 0.0162 / 0 / 0.0200 | 0.0161 / 0 / 0 |
| GGAAACCGGUUUCAC | 0.240 | 0.0819 / 0.0643 / 0.171 | 0 / 0 / 0 | 0 / 0 / 0 |
| GGAAACCGGUUUCCC | 0.224 | 0.131 / 0.112 / 0.0381 | 0 / 0 / 0 | 0 / 0 / 0 |
| GGAAACCGGUUUCGC | 0.192 | 0.0819 / 0.145 / 0.0381 | 0.0162 / 0 / 0.0200 | 0.0161 / 0 / 0 |
| GGAAACCGGUUUCUC | 0.320 | 0.0655 / 0.0803 / 0.0952 | 0.0162 / 0 / 0 | 0 / 0 / 0 |
| GGAAACCGGUUUGAC | 0.288 | 0.0819 / 0.0643 / 0.0952 | 0.0162 / 0.0445 / 0 | 0 / 0 / 0 |
| GGAAACCGGUUUGCC | 0.208 | 0.0655 / 0.0803 / 0.0762 | 0.0162 / 0 / 0.0200 | 0 / 0 / 0 |
| GGAAACCGGUUUGGC | 0.240 | 0.0819 / 0.0964 / 0.0571 | 0.0162 / 0 / 0.0200 | 0 / 0 / 0 |
| GGAAACCGGUUUGUC | 0.176 | 0.0491 / 0.193 / 0.0762 | 0 / 0 / 0 | 0.0161 / 0 / 0 |
| GGAAACCGGUUUUAC | 0.208 | 0.246 / 0.241 / 0.305 | 0.146 / 0.156 / 0.180 | 0.0644 / 0 / 0 |
| GGAAACCGGUUUUCC | 0.272 | 0.0819 / 0.112 / 0.114 | 0.0162 / 0 / 0 | 0 / 0 / 0 |
| GGAAACCGGUUUUGC | 0.240 | 0.0655 / 0.0482 / 0.133 | 0 / 0 / 0 | 0.0161 / 0 / 0 |
| GGAAACCGGUUUUUC | 0.208 | 0.0491 / 0.0964 / 0.0952 | 0 / 0 / 0.0401 | 0.0161 / 0 / 0 |
| GGAAACCGUAAAAAC | 0.176 | 0.377 / 0.386 / 0.400 | 0.146 / 0.0891 / 0.321 | 0 / 0.0303 / 0.114 |
| GGAAACCGUAAAACC | 0.208 | 0.0655 / 0.112 / 0.114 | 0 / 0 / 0.0401 | 0.0161 / 0 / 0 |
| GGAAACCGUAAAAGC | 0.224 | 0.115 / 0.0803 / 0.114 | 0 / 0 / 0.0200 | 0.0161 / 0 / 0 |
| GGAAACCGUAAAAUC | 0.240 | 0.0491 / 0.0803 / 0.0952 | 0 / 0 / 0.0401 | 0.0161 / 0 / 0 |
| GGAAACCGUAAACAC | 0.224 | 0.459 / 0.241 / 0.286 | 0.129 / 0.134 / 0.140 | 0.0644 / 0.0756 / 0.114 |
| GGAAACCGUAAACCC | 0.272 | 0.115 / 0.0482 / 0.0952 | 0 / 0 / 0 | 0 / 0 / 0.0228 |
| GGAAACCGUAAACGC | 0.192 | 0.115 / 0.0482 / 0.171 | 0 / 0.0223 / 0.0401 | 0 / 0 / 0 |
| GGAAACCGUAAACUC | 0.160 | 0.164 / 0.112 / 0.0762 | 0.0162 / 0 / 0.0200 | 0.0161 / 0 / 0 |
| GGAAACCGUAAAGAC | 0.176 | 0.131 / 0.161 / 0.0762 | 0 / 0 / 0.0401 | 0 / 0 / 0 |
| GGAAACCGUAAAGCC | 0.304 | 0.115 / 0.112 / 0.0571 | 0 / 0 / 0.0200 | 0 / 0 / 0 |
| GGAAACCGUAAAGGC | 0.192 | 0.0819 / 0.161 / 0.152 | 0.0162 / 0 / 0 | 0 / 0 / 0 |
| GGAAACCGUAAAGUC | 0.208 | 0.262 / 0.257 / 0.114 | 0 / 0.0223 / 0.0401 | 0.0161 / 0 / 0 |
| GGAAACCGUAAAUAC | 0.320 | 0.197 / 0.386 / 0.362 | 0.210 / 0.0891 / 0.100 | 0.0322 / 0.0605 / 0.0684 |
| GGAAACCGUAAAUCC | 0.240 | 0.278 / 0.225 / 0.457 | 0.129 / 0.0668 / 0.0601 | 0.0161 / 0 / 0 |
| GGAAACCGUAAAUGC | 0.160 | 0.360 / 0.193 / 0.438 | 0.0970 / 0.111 / 0.120 | 0.0483 / 0.0454 / 0.0684 |
| GGAAACCGUAAAUUC | 0.224 | 0.344 / 0.466 / 0.343 | 0.162 / 0.134 / 0.160 | 0.0644 / 0.0303 / 0.0456 |
| GGAAACCGUAACAAC | 0.224 | 0.442 / 0.450 / 0.362 | 0.0647 / 0.111 / 0.0801 | 0.0322 / 0.0303 / 0.0912 |
| GGAAACCGUAACACC | 0.400 | 0.0819 / 0.112 / 0.0952 | 0 / 0 / 0.0200 | 0 / 0 / 0 |
| GGAAACCGUAACAGC | 0.256 | 0.180 / 0.112 / 0.0952 | 0.0162 / 0 / 0.0200 | 0.0161 / 0 / 0 |
| GGAAACCGUAACAUC | 0.192 | 0.0819 / 0.0482 / 0.152 | 0.0162 / 0.0445 / 0 | 0 / 0 / 0.0228 |
| GGAAACCGUAACCAC | 0.256 | 0.278 / 0.241 / 0.495 | 0.0808 / 0.0668 / 0.140 | 0.0805 / 0.0454 / 0 |
| GGAAACCGUAACCCC | 0.336 | 0.0819 / 0.0964 / 0.0381 | 0 / 0.0223 / 0.0601 | 0.0161 / 0 / 0 |
| GGAAACCGUAACCGC | 0.144 | 0.0819 / 0.0803 / 0.0952 | 0 / 0 / 0.0601 | 0 / 0 / 0 |
| GGAAACCGUAACCUC | 0.368 | 0.197 / 0.353 / 0.286 | 0.0485 / 0.0445 / 0.160 | 0.0161 / 0 / 0 |
| GGAAACCGUAACGAC | 0.224 | 0.0328 / 0.0964 / 0.0762 | 0 / 0 / 0.0401 | 0 / 0 / 0 |

Source: Wu et al. 2024 (doi:10.1371/journal.ppat.1012142), supplementary data.